Anti-infective test results gathered from many reports (values: NIAID ChemDB through PubChem).

Common to all: tests in culture; agent: Candida albicans; measure: MIC

An empty or dashed field is not shown. Lines come from different laboratories, so protocols vary.

{"SMILES": "CC(C)(O)c1cn(-c2ccc(Cl)cc2)nn1", "strain": "URM 4987", "read by": "broth dilution", "result": "128 µg/mL"}
{"SMILES": "CCOC(=O)Cc1csc(NC(=O)CSc2nnc(C(C)Oc3ccc(C)cc3)n2-c2ccccc2)n1", "strain": "NRRL Y-27077", "result": "16 µg/mL"}
{"SMILES": "Cc1ccc(O)c(C(=O)/C=C/c2ccc(O)cc2O)c1", "strain": "ATCC 18804", "result": "75 µg/mL"}
{"SMILES": "C[C@@H](n1cnc2cc(N3CCN(c4ccc([N+](=O)[O-])cc4)CC3)ccc2c1=O)[C@](O)(Cn1cncn1)c1ccc(F)cc1F", "strain": "60 strains", "result": "0.15 µg/mL"}
{"SMILES": "O=c1c(N2CCOCC2)c(N2CCN(S(=O)(=O)Cc3ccccc3)CC2)cnn1-c1ccccc1", "strain": "C375", "read by": "broth dilution", "result": "50 µg/mL"}
{"SMILES": "CC(C)C(=O)CCC[C@H]1CO[C@@](Cn2ccnc2)(c2ccc(F)cc2F)C1", "strain": "CI-2", "result": "25 µg/mL"}
{"SMILES": "COc1cncc(-c2ncn(S(=O)(=O)c3ccc(C)cc3)n2)n1", "read by": "broth dilution", "result": ">256 µg/mL"}
{"SMILES": "C[C@H]([C@](O)(Cn1cncn1)c1ccc(F)cc1F)S(C)(=O)=O", "strain": "406 strains", "result": "0.15 µg/mL"}
{"SMILES": "O=C(/C=C/c1ccc(O)cc1O)c1ccccc1", "strain": "SDAU4", "result": "50 µg/mL"}
{"SMILES": "CCCCCCCCCCCC[N+](C)(C)COCC(C)CC", "strain": "ATCC 10231", "result": "71.4 µM"}
{"SMILES": "CC(C)(C)c1ccc(C(=O)Nc2ccc(N)cc2O)cc1", "strain": "ATCC 10231", "result": "15.6 µg/mL"}
{"SMILES": "COc1cncc(C(N)=NNc2ccccc2)n1", "read by": "broth dilution", "result": "16 µg/mL"}
{"SMILES": "O=C(CCn1ccnc1)c1cccc(C(O)c2ccc(Br)cc2)c1", "strain": "RTCC1024", "read by": "broth dilution", "result": ">64 µg/mL"}
{"SMILES": "C[C@H](n1cnc2cc3ccccc3cc2c1=O)[C@](O)(Cn1cncn1)c1ccc(F)cc1F", "strain": "76 strains", "result": "0.31 µg/mL"}
{"SMILES": "CCCCC/C=C/CCC(=O)[C@H]1O[C@H]1C(=O)N(CC)CC", "strain": "G2-sensitive", "result": "3.125 µg/mL"}
{"SMILES": "COc1ccc(C(Cc2ccccc2-n2cccc2)n2ccnc2)cc1", "result": "7.8 µg/mL"}
{"SMILES": "COc1cc(O)c2c(c1)C(=O)c1c(cc3c(c1O)-c1c(cc(C)c(C(=O)NCC(=O)O)c1O)[C@H](OC1OC(C)C(N(C)C)C(OC4OCC(O)C(O)C4O)C1O)[C@H]3O)C2=O", "strain": "A9540", "result": "3.1 µg/mL"}
{"SMILES": "CC(C)C(=O)CCC[C@@H]1CO[C@@](Cn2cccc2)(c2ccc(F)cc2F)C1", "strain": "A.10231", "result": ">100 µg/mL"}
{"SMILES": "C=CCn1cc(-c2ccc(Cl)cc2Cl)c(C(c2ccc(Cl)cc2Cl)n2ccnc2)c1", "result": "0.12 µg/mL"}
{"SMILES": "C[C@@H](n1cnc2cc(OCC(F)F)ccc2c1=O)[C@](O)(Cn1cncn1)c1ccc(F)cc1F", "strain": "76 strains", "result": "40 µg/mL"}
{"SMILES": "O=C(Nc1nc2ccc(NC(=O)[C@@H]3CCC[C@H](NCc4ccc5ccccc5c4)C3)cc2s1)C1CCCC1", "strain": "IFM 5743", "result": "25 µM"}
{"SMILES": "CNN=C(N)c1cncc(OC)n1", "read by": "broth dilution", "result": ">256 µg/mL"}
{"SMILES": "CCCCCCCCCCCC[N+](C)(C)COCCCCCCCCC", "strain": "ATCC 10231", "result": "62 µM"}
{"SMILES": "OC(CCn1ccnc1)c1ccc(Br)cc1", "strain": "RTCC1024", "read by": "broth dilution", "result": "64 µg/mL"}
{"SMILES": "O=C(Nc1cc([N+](=O)[O-])ccc1O)c1ccc(F)cc1", "strain": "ATCC 10231", "result": "7.8 µg/mL"}
{"SMILES": "CCn1cc(-c2ccc(Cl)cc2Cl)c(C(c2ccc(Cl)cc2Cl)n2ccnc2)c1", "result": "0.23 µg/mL"}
{"SMILES": "C[C@@H](c1ncncc1F)[C@](O)(Cn1cncn1)c1ccc(F)cc1F", "strain": "Isolate K1", "result": "0.007 µg/mL"}
{"SMILES": "CC(C)C(=N)CCC[C@H]1CO[C@@](Cn2cncn2)(c2ccc(F)cc2F)C1", "strain": "IFO. 1385", "result": "12.5 µg/mL"}
{"SMILES": "Nc1ncnc2c1ncn2[C@@H]1O[C@H](C(=O)O)[C@@H](NC(=O)C(N)Cc2cccc(Cl)c2)[C@H]1O", "strain": "FP633", "result": "3.1 µg/mL"}
{"SMILES": "O=c1c(OC2CCCC2)c(N2CCN(S(=O)(=O)NCc3ccccc3)CC2)cnn1-c1cccc(Cl)c1", "strain": "C-43", "read by": "broth dilution", "result": "125 µg/mL"}
{"SMILES": "Nc1ccc(O)c(NC(=O)c2ccccc2)c1", "strain": "ATCC 10231", "result": "31.25 µg/mL"}
{"SMILES": "CCCCCCCCCCCC[N+](C)(C)COCC(C)C", "strain": "ATCC 10231", "result": "298 µM"}
{"SMILES": "CCOC(=O)c1csc(NC(=O)CSc2nnc(C(C)Oc3ccc(Cl)cc3)n2-c2ccccc2)n1", "strain": "NRRL Y-27077", "result": ">16 µg/mL"}
{"SMILES": "Cc1c(O)cccc1C(=O)N[C@@H](CSc1ccccc1)[C@H](O)CN1C[C@H]2CCCC[C@H]2C[C@H]1C(=O)NC(C)(C)C", "strain": "I2", "result": "64 µg/mL"}
{"SMILES": "CC(=O)N1CCN(c2ccc(OC[C@H]3CO[C@](Cn4ccnc4)(c4ccc(Cl)cc4Cl)O3)cc2)CC1", "strain": "ATCC 10261", "result": "0.06 µg/mL"}
{"SMILES": "CC(C)C(=O)CCC[C@H]1CO[C@@](Cn2cncn2)(c2ccc(F)cc2F)C1", "strain": "CI-2", "result": ">100 µg/mL"}
{"SMILES": "C[C@@H](n1cnc2cc(N3CCN(c4ccc(Cl)cc4)CC3)ccc2c1=O)[C@](O)(Cn1cncn1)c1ccc(F)cc1F", "strain": "60 strains", "result": "≤0.03 µg/mL"}
{"SMILES": "CCc1ccc(C(=O)Nc2cc(N)ccc2O)cc1", "strain": "ATCC 10231", "result": "15.6 µg/mL"}
{"SMILES": "CC(=O)NCSC[C@@H](N)C(=O)N[C@H]1[C@@H](O)[C@H](n2cnc3c(N)ncnc32)O[C@@H]1C(=O)O", "strain": "FP633", "result": ">100 µg/mL"}
{"SMILES": "Cn1cc(-c2cccc3ccccc23)c(C(c2ccc(Cl)cc2Cl)n2ccnc2)c1", "result": "0.94 µg/mL"}
{"SMILES": "CSCCCC(N)C(=O)N[C@H]1[C@@H](O)[C@H](n2cnc3c(N)ncnc32)O[C@@H]1C(=O)O", "strain": "FP633", "result": "25 µg/mL"}
{"SMILES": "CCOC(=O)c1csc(NC(=O)CSc2nnc(C(C)Oc3ccccc3)n2C2CCCCC2)n1", "strain": "NRRL Y-27077", "result": "16 µg/mL"}
{"SMILES": "N/C(=N\\N=C(/N)c1cnccn1)c1cnccn1", "read by": "broth dilution", "result": ">256 µg/mL"}
{"SMILES": "C[C@@H](n1cnc2cc(F)c(F)cc2c1=O)[C@](O)(Cn1cncn1)c1ccc(F)cc1F", "strain": "60 strains", "result": "0.07 µg/mL"}
{"SMILES": "Nc1ncnc2c1ncn2[C@@H]1O[C@H](C(=O)NCCS(=O)(=O)O)[C@@H](NC(=O)[C@H](N)CSCc2ccccc2)[C@H]1O", "strain": "FP633", "result": ">100 µg/mL"}
{"SMILES": "CS(C)=O", "strain": "G2-sensitive", "result": "6.25 µg/mL"}
{"SMILES": "Nc1ncnc2c1ncn2[C@@H]1O[C@H](C(=O)O)[C@@H](NC(=O)[C@H](N)CSCC2CC2)[C@H]1O", "strain": "FP633", "result": "3.1 µg/mL"}
{"SMILES": "OC(CCn1ccnc1)c1ccc(-c2ccccc2)cc1", "strain": "RTCC1024", "read by": "broth dilution", "result": "64 µg/mL"}
{"SMILES": "CCC(C)CC(C)CCCCCCCCC(=O)NC1C[C@H](O)[C@@H](O)NC(=O)[C@@H]2[C@@H](O)[C@@H](C)CN2C(=O)[C@H]([C@H](O)CC(N)=O)NC(=O)[C@H](C(O)[C@H](O)c2ccc(O)cc2)NC(=O)[C@@H]2C[C@@H](O)CN2C(=O)[C@H]([C@@H](C)O)NC1=O", "strain": "MY1783", "result": "0.25 µg/mL"}
{"SMILES": "CCCCCCCC[N+](C)(C)COCC(CC)CCCC", "strain": "ATCC 10231", "result": "149 µM"}
{"SMILES": "CCCCCCCCOc1ccc(C(=O)NC2C[C@@H](O)[C@@H](O)NC(=O)C3[C@@H](O)[C@@H](C)CN3C(=O)C(C(C)O)NC(=O)C([C@H](O)[C@@H](O)c3ccc(O)cc3)NC(=O)C3C[C@@H](O)CN3C(=O)C(C(C)O)NC2=O)cc1", "strain": "MY1750", "result": "1 µg/mL"}
{"SMILES": "Nc1ncnc2c1ncn2[C@@H]1O[C@H](C(=O)O)[C@@H](NC(=O)[C@H](N)CSC(c2ccccc2)(c2ccccc2)c2ccccc2)C1O", "strain": "FP633", "result": ">100 µg/mL"}
{"SMILES": "Cc1ccc(OC(C)c2n[nH]c(=S)n2-c2ccccc2)cc1", "strain": "NRRL Y-27077", "result": "1 µg/mL"}
{"SMILES": "CCCCCCCCC(O)[C@H]1O[C@H]1C(=O)NC1CC1", "strain": "SC5314", "result": "6.25 µg/mL"}
{"SMILES": "Cc1ccc(C(O)c2cccc(C(=O)CCn3ccnc3)c2)cc1", "strain": "RTCC1024", "read by": "broth dilution", "result": ">64 µg/mL"}

The first 6 rows once more:

| SMILES | strain | read by | result |
|---|---|---|---|
| CC(C)(O)c1cn(-c2ccc(Cl)cc2)nn1 | URM 4987 | broth dilution | 128 µg/mL |
| CCOC(=O)Cc1csc(NC(=O)CSc2nnc(C(C)Oc3ccc(C)cc3)n2-c2ccccc2)n1 | NRRL Y-27077 | - | 16 µg/mL |
| Cc1ccc(O)c(C(=O)/C=C/c2ccc(O)cc2O)c1 | ATCC 18804 | - | 75 µg/mL |
| C[C@@H](n1cnc2cc(N3CCN(c4ccc([N+](=O)[O-])cc4)CC3)ccc2c1=O)[C@](O)(Cn1cncn1)c1ccc(F)cc1F | 60 strains | - | 0.15 µg/mL |
| O=c1c(N2CCOCC2)c(N2CCN(S(=O)(=O)Cc3ccccc3)CC2)cnn1-c1ccccc1 | C375 | broth dilution | 50 µg/mL |
| CC(C)C(=O)CCC[C@H]1CO[C@@](Cn2ccnc2)(c2ccc(F)cc2F)C1 | CI-2 | - | 25 µg/mL |